Laboratory results reported in patent US20260168983, “YaxAB NANOPORE, NANOPORE SYSTEM COMPRISING SAME AND APPLICATIONS THEREOF” (published 2026).

Target: YaxB_(12-343), modified second monomer, Yersinia enterocolitica
Assay: negative-stain EM of the YaxAB_dN-C8 oligomer

Substance: YaxA_(45-410), modified first monomer
- result: binds
